The values are deposited in ChEMBL (CHEMBL3988442, “University of Dundee, Small-Polar-MMV Screening Library” (2021)).

Mtb cholesterol medium: 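Whole-cell growth test on Mycobacterium tuberculosis, read after 4 days in a medium based on cholesterol and the lipid DPPC; the read-out is not stated. Tested at 500 µM. Higher reads as more growth inhibition (inferred: compounds with an IC50 in retests scored well above the rest). About 18,000 compounds were tested under these conditions; 5% (about 900) showed 50% or more at least once.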
Mtb glucose medium: 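Whole-cell growth test on Mycobacterium tuberculosis, read after 3 days in glucose-containing 7H9 medium; the read-out is not stated. Concentration: 500 µM. Direction is inferred from retests: higher values go with more growth inhibition. Of about 18,000 compounds tested this way, about 1,400 (7.9%) reached 50% or more in at least one test.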

Each number is a percent effect as filed.
How 0% and 100% were set is not recorded. Most values in the screen are low, and negative values occur.
This is part of a subset picked to be rich in strong results.
A dash means the value is not listed here; it may have been measured.

SMILES,Mtb cholesterol medium,Mtb glucose medium
CC1c2ccsc2CCN1CCC(=O)NC(N)=O (stereo unspecified),109.2,103.6
Cc1cc(F)cc(S(=O)(=O)NCCCN)c1,-,27.41
Cn1ccc(C(=O)N2CCc3ccccc32)cc1=O,-,22.66
COc1ccc2cc(CN)ccc2c1,-,29.56
O=C(COC(=O)c1cccs1)NCc1ccco1,100.8,74.42
c1c[nH]c(C2CCNC2)n1 (stereo unspecified),-,-0.3812
Cc1[nH]ncc1CNCC(O)CN1CCCCC1 (stereo unspecified),-,-12.03
NCCCc1nc(-c2ccncc2)no1,5.764,7.227
NC(=O)c1cc(S(=O)(=O)NCCCc2ccco2)cs1,-,12.36
CC(C1CCN(Cc2ncc[nH]2)CC1)N1CCOCC1 (stereo unspecified),-,-4.285
Cc1nc(C)c(CC(=O)NCc2snnc2C)c(=O)[nH]1,-6.067,-
CCN(Cc1c(F)cccc1F)S(C)(=O)=O,-,8.828
CN(CCn1cccn1)c1cc(Br)ccn1,48.88,59.48
CS(=O)(=O)c1nc2ccccc2n1CCC(N)=O,-,-2.454
CN(Cc1ccco1)C(=O)CCc1ccc(C#N)cc1,95.38,103.6
O=C(NCCSCc1cccc(Cl)c1)C1CNCCO1 (stereo unspecified),73.2,76.19
CC(C)Oc1ccc(C(O)CN)cc1 (stereo unspecified),19.29,15.44
Cc1csc(C(C)CNC(=O)Nc2ncnn2C)n1 (stereo unspecified),-3.63,-
CNCC(=O)Nc1cccc(OC)c1,-,18.87
CS(=O)(=O)Nc1ccc2[nH]c(=O)oc2c1,-,-4.986
O=C1CNCCN1c1cccc2cnccc12,-8.719,-
CCc1nn2c(=O)cc(CN(CC)CC)nc2s1,-,8.773
CNCc1occc1C,-,-9.286
Cc1c(O)cccc1C(=O)NC1CCOC1 (stereo unspecified),-,-13.39
CO[C@@H]1C[C@@H](CO)N(C(=O)OC(C)(C)C)C1,22.12,-
CCCN(CCOC)CC(=O)Nc1ccn(C)n1,11.84,-
COCC(C)(O)CCN (stereo unspecified),-,4.407
COC(=O)c1ccc(S(=O)(=O)N2CCOCC2)cc1,-,-12.08
CC(O)CCc1ccc(O)cc1 (stereo unspecified),-,11.18
O=C(CCc1ccc(O)cc1)N[C@@H]1CCNC[C@H]1O,-3.28,-
CN(C)C(=O)Cn1cnc2ccsc2c1=O,19.74,-
NC(=O)NC(=O)CN1CCSCC1,2.702,-
CCN1CCC(CNC(=O)Nc2ccc(OC)nc2)C1 (stereo unspecified),-22.49,-
NCCCc1ccc(O)cc1,-,14.83
O=C(CNC(=O)c1cccs1)c1ccccc1,-,53.73
CCc1ccc(CN(C)C(=O)COC(C)C)nc1,-,19.18
CCC(C)(C)C(=O)NC1CNC[C@@H]1OC (stereo partly specified),-,-1.745
CCOC(=O)N1CCC(N)C1 (stereo unspecified),-,-1.818
Cc1nc(C(=O)NCCN2CCCC2)c(C)s1,-,64.05
COCC(O)CN(C)C(=O)c1cc(C)cc(F)c1 (stereo unspecified),4.204,8.693
Cc1nocc1C(=O)N1C[C@@H](CO)[C@H](N(C)C)C1,5.483,-
CN(C)C1CCN(CC(=O)NCCSc2cnn[nH]2)C1 (stereo unspecified),-2.286,-
O=C(c1cnc[nH]1)N1CCC(O)(CN2CCCC2)CC1,-,-6.682
COCc1cc(N2CCCC(CO)C2)n2nccc2n1 (stereo unspecified),-,16.27
CCCNC(=O)C1CCN(C(=O)c2cc(Cl)c[nH]2)CC1,-,23.78
CCCN(CCC)C(=O)CN1CCCN(C(C)=O)CC1,-,4.551
CCOCCSc1nnnn1CC1CCCO1 (stereo unspecified),42.79,37
CCc1nc(Cn2ccc(C)c(C#N)c2=O)no1,-,-1.451
c1ccc(NCCCN2CCOCC2)cc1,21.89,-

The last 4 entries again:

* CCCN(CCC)C(=O)CN1CCCN(C(C)=O)CC1 | Mtb glucose medium: 4.551%
* CCOCCSc1nnnn1CC1CCCO1 (stereo unspecified) | Mtb cholesterol medium: 42.79%; Mtb glucose medium: 37%
* CCc1nc(Cn2ccc(C)c(C#N)c2=O)no1 | Mtb glucose medium: -1.451%
* c1ccc(NCCCN2CCOCC2)cc1 | Mtb cholesterol medium: 21.89%